Measurements from ChEMBL document CHEMBL1687848, “In vitro effect of qnrA1, qnrB1, and qnrS1 genes on fluoroquinolone activity against isogenic Escherichia coli isolates with mutations in gyrA and parC” (2011).
The source made the active and inactive calls. The rule behind the calls is not given here.

What was measured:
Escherichia coli [1] = test: Antibacterial activity against Escherichia coli ATCC 25922 expressing qnrS gene and pBK-QnrS1 assessed as reduction of viable bacteria at 4 time MIC after 24 hrs; assay type: functional, organism-based
Escherichia coli [2] = test: Antibacterial activity against Escherichia coli ATCC 25922 expressing qnrA gene and pBK-QnrA1 assessed as reduction of viable bacteria at 4 time MIC after 24 hrs; assay type: functional, organism-based

O=C(O)c1cn(C2CC2)c2cc(N3CCNCC3)c(F)cc2c1=O [CIPROFLOXACIN] was tested. Which Activity (Escherichia coli [1]) did it give?
Its Activity is “inactive”.

What about the Activity (Escherichia coli [2]) of the same compound?
The Activity was “inactive”.
